## Sequence variants of PSTVd stem 3 after infection

Values reported by Wu et al. 2024 (doi:10.1371/journal.ppat.1012142).

Region: stem 3 of PSTVd (intermediate strain), upper and lower strand joined, each 5' to 3', the first 8 letters being the upper strand. Wild type: GUGGUUCCGGAACCGC. Varied positions (N): GUGGUUCCGNANNCNN.

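Three N. benthamiana plants were inoculated with the whole mutant pool. Samples came from the inoculated region at 5 days, the leaf margin at 10 and upper systemic leaves at 12.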

Values are reads per thousand in the sample; higher means more abundant, 0 means not found. Each value is the mean of three plants. "Pool" is the share in the plasmid pool used as inoculum, on the same scale. The inoculated region was read from the minus strand, the other sites from the plus strand. IR is the inoculated region, LM the leaf margin, Sys the systemic leaves. Sequences that differ at fixed positions probably stem from PCR or sequencing errors, and defective variants can be carried along by functional ones. Samples held 27,691 to 54,225 reads, so the smallest values rest on one or two reads. Wild type was 17.3 per thousand in the pool and the most common sequence in every sample (inoculated region 330, 345, 235; leaf margin 794, 766, 816; systemic leaves 830, 792, 869).

With GUGGUUCCGAAUUCAG (pool 1.45) the assay gave IR 1.20; LM 1.03; Sys 1.07. GUGGUUCCGCAAUCGG (pool 0.816) gave IR 0.328; LM 0.00944; Sys 0. With GUGGGUCCGAAUGCAC (pool 0.0154) the assay gave IR 0.00888; LM 0; Sys 0. GUGGUUCCGCAGCCCU (pool 0.954) gave IR 0.787; LM 0; Sys 0. With GUGGUUCCGAAGGCGU (pool 0.631) the assay gave IR 0.842; LM 0.359; Sys 0. With GUGGUUCCGCAAUCAU (pool 1.52) the assay gave IR 2.00; LM 1.07; Sys 1.05. For GUGGUUCCGUAGACUA (pool 0.723) the result was IR 0.355; LM 0.00944; Sys 0. With GUGGUUCCGUAGACGG (pool 0.816) the assay gave IR 0.240; LM 0.0120; Sys 0. GUGGUCCCGGAGCCCA (pool 0.0154) read IR 0; LM 0; Sys 0.

GUGGUUCCGGACUCUG (pool 1.00) gave IR 0.361; LM 0.0241; Sys 0. GUGGUUCCGGAUUCAG (pool 0.862) gave IR 0.792; LM 0.0200; Sys 0. GUGGUUCCGAAGCCAU (pool 1.43) read IR 0.847; LM 0.939; Sys 1.15. GUGGUUCCGGAGACUC (pool 0.923) gave IR 0.691; LM 0.232; Sys 0. With GUGGUUCCGGAUGCCC (pool 0.769) the assay gave IR 0.363; LM 0.0212; Sys 0. GUGGUUCCGUAGUCGG (pool 0.908) read IR 0.723; LM 0.0106; Sys 0. For GUGGUUCCGCAGUCAG (pool 0.831) the result was IR 0.740; LM 0.558; Sys 0. With GUGGUUCCGCAUGCUG (pool 0.877) the assay gave IR 0.315; LM 0.0106; Sys 0. GUGGUUCCGGAAUCUC (pool 0.831) read IR 0.301; LM 0.0120; Sys 0.

GUGGUUCCGCAGACAA (pool 0.893) gave IR 0.810; LM 0; Sys 0. With GUGGUUCCGCAUACUU (pool 0.939) the assay gave IR 0.798; LM 0.177; Sys 0. With GUGGUUCCGCACUCUC (pool 1.54) the assay gave IR 0.593; LM 0.0427; Sys 0.0186. GUGGUUCCGGAUUCAA (pool 1.08) gave IR 1.29; LM 0; Sys 0.00621. GUGGUUCCGCAAGCGC (pool 1.08) read IR 0.498; LM 0.0441; Sys 0.0486. GUGGUUCAGUACCCCG (pool 0.0154) gave IR 0; LM 0; Sys 0. With GUGGUUCCGGAAGCGG (pool 0.846) the assay gave IR 0.329; LM 0.0241; Sys 0. For GUGGUUCCGGACACGA (pool 0.785) the result was IR 0.283; LM 0.0120; Sys 0. With GUGGUUCCGUAUACGC (pool 1.06) the assay gave IR 0.581; LM 0.0745; Sys 0.0702.

GUGGUUCCGGAAACCU (pool 0.723) gave IR 0.294; LM 0.00944; Sys 0. For GUGGUUCCGCAGGCCA (pool 0.862) the result was IR 0.394; LM 0; Sys 0. GUGGUUCCUGAACAGC (pool 0.0154) gave IR 0.00888; LM 0.0347; Sys 0.0124.

3 of these entries, quoted again:

| sequence | pool | IR | LM | Sys |
|---|---|---|---|---|
| GUGGUUCCGGAUGCCC | 0.769 | 0.363 | 0.0212 | 0 |
| GUGGUUCAGUACCCCG | 0.0154 | 0 | 0 | 0 |
| GUGGUUCCGCAGGCCA | 0.862 | 0.394 | 0 | 0 |